Pooled drug test results. Numbers come from NIAID ChemDB, via PubChem.

Common to all: tests in culture; organism: Hepatitis B virus; cells: HepAD38; read by: PCR; measure: EC50

Conditions beyond the fields shown may differ between rows. An empty or dashed field is not shown. Two numbers with a dash give a range or band. ECn: concentration that inhibits the pathogen or its effect by n%.

structure	strain or isolate	value
Cc1cc(NC(=O)c2c3c(cn2C)S(=O)(=O)N[C@H]2CN(C(=O)C(=O)N4CC(F)(F)C4)C[C@H]2CO3)ccc1F	-	<0.5 µM
Cn1nc2cc(NS(=O)(=O)NCC3CN(c4ccccc4)C3)ccc2c1C(=O)Nc1ccc(F)c(Cl)c1	-	>1000 µM
Cc1cc(NC(=O)c2c3c(n(C)c2C)C(=O)NC(C)CC3)ccc1F	-	<0.05 µM
Cc1cc(NC(=O)c2c3c(cn2C)S(=O)(=O)N[C@H]2CN(C(=O)C(=O)NCC(F)(F)F)C[C@H]2CO3)ccc1F	-	<0.5 µM
Cn1nc2cc(NCS(=O)(=O)NC[C@H](O)CO)ccc2c1C(=O)Nc1ccc(F)c(Cl)c1	-	100–1000 µM
Cn1cc2c(c1C(=O)Nc1ccc(F)c(Cl)c1)OC[C@@H]1CN(C(=O)C(=O)NC3(C)COC3)C[C@@H]1NS2(=O)=O	-	<0.5 µM
Cc1cc(NC(=O)c2c3c(c(C)n2C)C(=O)N[C@@H](C)C3)ccc1F	-	<0.05 µM
Cc1cc(NC(=O)c2c3c(cn2C)S(=O)(=O)N[C@H]2CN(C(=O)C(=O)N[C@H](C)C(F)(F)F)C[C@@]2(C)CO3)ccc1F	-	<0.5 µM
Cc1c2c(c(C(=O)Nc3ccnc(F)c3)n1C)CCC(C)(C)NC2=O	-	0.05–0.499 µM
C[C@@H](NC(=O)C(=O)N1CCC2(CC1)COc1c(cn(C)c1C(=O)Nc1ccc(F)c(C(F)F)c1)S(=O)(=O)N2)C(F)(F)F	Genotype D	<0.5 µM
Cn1nc2cc(NS(=O)(=O)c3cnn(CCS(C)(=O)=O)c3)ccc2c1C(=O)Nc1ccc(F)c(Cl)c1	-	100–1000 µM
C[C@H](NC(=O)C(=O)N1CCC2(COc3c(cn(C)c3C(=O)Nc3ccc(F)c(F)c3)S(=O)(=O)N2)C1)C(F)(F)F	Genotype D	<0.5 µM
Cc1cc(NC(=O)c2c3c(cn2C)S(=O)(=O)N[C@H]2CN(C(=O)C(=O)N[C@@H](C)C(F)(F)F)C[C@H]2CS3)ccc1F	-	<0.5 µM
Cn1cc2c(c1C(=O)Nc1ccc(F)c(Cl)c1)OC[C@]1(CCN(C(=O)C(=O)NCC(F)(F)F)C1)NS2(=O)=O	Genotype D	<0.5 µM
Cn1nc2cc(NS(=O)(=O)N(CC3CC3)C3CC3)ccc2c1C(=O)Nc1ccc(F)c(Cl)c1	-	100–1000 µM
Cc1c(C(=O)Nc2ccc(F)c(F)c2)c2c(n1C)C(=O)NC(C)(C)CC2	-	0.05–0.499 µM
C[C@H](NC(=O)C(=O)N1CC[C@]2(COc3c(cn(C)c3C(=O)Nc3ccc(F)c(C(F)F)c3)S(=O)(=O)N2)C1)C(F)(F)F	Genotype D	<0.5 µM

A second listing of 2 rows from above:

structure	strain or isolate	value
Cc1c(C(=O)Nc2ccc(F)c(F)c2)c2c(n1C)C(=O)NC(C)(C)CC2	-	0.05–0.499 µM
Cn1cc2c(c1C(=O)Nc1ccc(F)c(Cl)c1)OC[C@@H]1CN(C(=O)C(=O)NC3(C)COC3)C[C@@H]1NS2(=O)=O	-	<0.5 µM